Measurements: patent US11505782B2 (priority 2018, dated 2022)

System: L14 vaccinia virus (VV) in RM35 ADSCs
Format: cell-based

IFNγ
Average pfu/sample: 1.75 × 10^5 pfu/sample
